Data on 1 molecule can be found in publication PMC11096021 (Immunity, 2024).

The term Kd denotes the constant that tells how readily two partners part at equilibrium.

Assay [1] deals with A/Michigan/45/2015 H1 trimer (biotinylated, for BLI) (Influenza A virus A/Michigan/45/2015 …, strain, biotin on the avi tag (BirA)). The note with it: both partners purified.
Assay [2] has as its target A/Perth/16/2009 H3 trimer (biotinylated, for BLI) (Influenza A virus A/Perth/16/2009 (H3N2), strain, biotin on the avi tag (BirA)). To be noted: both partners purified.

B1: 09–1B12-UCA Fab (Lys-C digest of recombinant IgG, used for BLI) (Fab, V domains shown)
VH: QVQLVQSGAEVKKPGASVKVSCKASGYTFTSYGISWVRQAPGQGLEWMGWISAYNGNTNYAQKLQGRVTMTTDTSTSTAYMELRSLRSDDTAVYYCARGLLQGVVILDSYYYTMDVWGQGTTVTVSS
VL: not shown
Regarding B1, in assay [1], the binding result is listed as “no binding”. The same molecule displayed a Kd in assay [2] of 124 nM.
